Measured values from several laboratories, pooled; numbers as filed in NIAID ChemDB.

All rows: enzyme or target tests; agent: HIV-1; target: Reverse transcriptase; read-out: IC50

ICn: concentration for n% inhibition. Blank or dashed fields: not listed here. Rows are shuffled and stem from different studies.

{"compound": "O=C(O)/C=C/c1ccc(O)c(O)c1", "read by": "RT activity / nucleotide incorporation / fluorescence", "value": ">100 µM"}
{"compound": "CC(=O)Nc1nc(C)c(S(=O)(=O)N2CCC(NC(=O)c3cc(O)c(O)c(O)c3)CC2)s1", "strain": "BH10", "read by": "ELISA / nucleotide incorporation", "value": ">237.8 µM"}
{"compound": "O=C(/C=C/c1ccc(O)c(O)c1)Oc1c(-c2ccc(Cl)c(Cl)c2)oc2ccccc2c1=O", "value": "50 µM"}
{"compound": "C[C@@H](CNC(=S)Nc1ccccn1)C1CCCCC1", "value": ">100 µM"}
{"compound": "CN(C)c1nc(Cc2c(F)cccc2F)cc(=O)[nH]1", "strain": "IIIB", "mutations": "RT-Y181I", "read by": "nucleotide incorporation / radiometric", "value": "3 µM"}
{"compound": "COc1cc(C(=O)Oc2c(-c3ccc(Cl)c(Cl)c3)oc3ccccc3c2=O)cc(OC)c1OC(C)=O", "value": ">100 µM"}
{"compound": "CN(c1ncccc1CO)C1CCN(C(=O)c2cc3cc(NS(C)(=O)=O)ccc3[nH]2)CC1", "strain": "IIIB", "read by": "nucleotide incorporation", "value": "50 µM"}
{"compound": "CCc1cc(CCc2nc3ccccc3o2)c(=S)[nH]c1C", "mutations": "RT-K103N Y181C", "read by": "nucleotide incorporation", "value": "11 µM"}
{"compound": "Nc1ccc(C(=O)N2CCC(NC(=O)c3cc(O)c(O)c(O)c3)CC2)cc1", "strain": "BH10", "read by": "ELISA / nucleotide incorporation", "value": ">323.1 µM"}
{"compound": "CC(=O)O[C@H]1CC[C@@]2(C)C(CC[C@@]3(C)C4CC[C@@]5(C)CCC(C)(C)C[C@H]5C4=CCC32)C1(C)C", "read by": "RT activity / nucleotide incorporation / fluorescence", "value": ">100 µM"}
{"compound": "Cc1cc(C)cc(S(=O)(=O)c2c(C(=O)NNCCO)[nH]c3ccc(Cl)cc23)c1", "read by": "nucleotide incorporation / radiometric", "value": "0.06 µM"}
{"compound": "COc1ccccc1C(=O)N1CCN(C(=O)c2cc(O)c(O)c(O)c2)CC1", "strain": "BH10", "read by": "ELISA / nucleotide incorporation", "value": ">50 µM"}
{"compound": "COc1cc(/C=C/C(=O)Oc2c(-c3ccc(Cl)c(Cl)c3)oc3ccccc3c2=O)ccc1O", "value": ">100 µM"}
{"compound": "COc1ccc(C(=O)N2CCC(NC(=O)c3cc(O)c(O)c(O)c3)CC2)cc1", "strain": "BH10", "read by": "ELISA / nucleotide incorporation", "value": "151.8 µM"}
{"compound": "Cc1cc(C)c2nc(NC(=S)NC[C@H](C)c3ccccc3)sc2c1", "value": "38.75 µM"}
{"compound": "Cc1c(C(C)c2c(F)cccc2F)nc(N2CCOCC2)[nH]c1=O", "strain": "IIIB", "mutations": "RT-V106A", "read by": "nucleotide incorporation / radiometric", "value": ">20 µM"}
{"compound": "CCc1cc(CCc2nc3ccccc3o2)c(=O)[nH]c1C", "mutations": "RT-K103N", "read by": "nucleotide incorporation", "value": "1.7 µM"}
{"compound": "C[C@H](CNC(=S)Nc1ccc(Br)cn1)C1CCCCC1", "value": ">100 µM"}
{"compound": "Nc1ncnc2c1ncn2[C@@H]1O[C@H](COP(=O)(O)OP(=O)(O)OP(=O)(O)O)C[C@@H]1F", "read by": "nucleotide incorporation", "value": "76 µM"}
{"compound": "O=C(Oc1c(-c2ccc(Cl)c(Cl)c2)oc2ccccc2c1=O)c1cc(OCc2ccccc2)c(OCc2ccccc2)c(OCc2ccccc2)c1", "value": ">100 µM"}
{"compound": "CCc1c(Sc2ccccn2)n(COCc2ccccc2)c(=O)[nH]c1=O", "mutations": "RT-P236L", "value": "7 µM"}
{"compound": "C[C@H](CNC(=S)Nc1nccs1)c1ccccc1", "value": ">100 µM"}
{"compound": "COc1ccc2c(c1)N(C(=O)OC(C)C)[C@@H](CSC)C(=S)N2", "mutations": "RT-L100I V108I Y181I", "read by": "scintillation proximity / radiometric", "value": ">29 µM"}
{"compound": "CC(C)=CCN1Cc2cccc3[nH]c(=S)n(c23)C[C@@H]1C", "read by": "nucleotide incorporation", "value": "0.24 µM"}
{"compound": "O=C(/C=C/c1ccc(O)c(O)c1)Oc1c(-c2ccc(Cl)cc2)oc2ccccc2c1=O", "value": ">100 µM"}
{"compound": "Cc1cccc(NC(=S)N[C@@H](C)c2cccc3ccccc23)n1", "value": ">100 µM"}
{"compound": "Cc1cc(C)cc(S(=O)(=O)N2CCN(C(=O)c3cc(O)c(O)c(O)c3)CC2)c1", "strain": "BH10", "read by": "ELISA / nucleotide incorporation", "value": ">50 µM"}
{"compound": "Cc1cccc(NC(=S)N[C@@H](C)c2ccccc2)n1", "value": ">100 µM"}
{"compound": "COc1ccc(C(=O)N2CCN(C(=O)c3cc(O)c(O)c(O)c3)CC2)cc1", "strain": "BH10", "read by": "ELISA / nucleotide incorporation", "value": ">50 µM"}
{"compound": "C[C@H](NC(=S)Nc1nc2ccccc2s1)c1cccc2ccccc12", "value": ">100 µM"}
{"compound": "COC(=O)c1ccc(C(=O)N2CCN(C(=O)c3cc(O)c(O)c(O)c3)CC2)cc1", "strain": "BH10", "read by": "ELISA / nucleotide incorporation", "value": ">50 µM"}
{"compound": "Cc1c(Cc2c(F)cccc2F)nc(N(C)C)[nH]c1=O", "strain": "IIIB", "mutations": "RT-K103N", "read by": "nucleotide incorporation / radiometric", "value": "10 µM"}
{"compound": "Cc1ccc(NC(=S)N[C@H](C)c2cccc3ccccc23)nc1", "value": "0.45 µM"}

A second listing of 3 rows from above:

compound	strain	mutations	read by	value
COc1ccccc1C(=O)N1CCN(C(=O)c2cc(O)c(O)c(O)c2)CC1	BH10	-	ELISA / nucleotide incorporation	>50 µM
Cc1ccc(NC(=S)N[C@H](C)c2cccc3ccccc23)nc1	-	-	-	0.45 µM
Cc1c(Cc2c(F)cccc2F)nc(N(C)C)[nH]c1=O	IIIB	RT-K103N	nucleotide incorporation / radiometric	10 µM